A mixed list of measured activities; the numbers were collected in NIAID ChemDB.

All rows: growth or infection tests; organism: Mycobacterium tuberculosis

Neighbouring rows are from separate reports. Blank or dashed fields: not listed here. MIC bound comes from a single tested concentration. ECn: concentration that inhibits the pathogen or its effect by n%. Inhibition is in % at the dose shown (toxicity tests: loss of growth or viability).

{"smiles": "C/C(=C\\C(=O)c1ccccc1)N1CCOCC1", "strain or isolate": "H37Rv", "measure": "MIC", "value": ">100 µg/mL"}
{"smiles": "CO[C@H]1/C=C/O[C@@]2(C)Oc3c(C)c(O)c4c(=O)c(c5oc6cc(N7CCN(C(C)C)CC7)cc(=O)c6nc5c4c3=C2O)NC(=O)/C(C)=C\\C=C\\[C@H](C)[C@H](O)[C@@H](C)[C@@H](O)[C@@H](C)[C@H](OC(C)=O)[C@@H]1C", "strain or isolate": "33 (rifampin-resistant)", "measure": "MIC", "value": "0.1 µg/mL"}
{"smiles": "CC(C)(C)SCCC(=O)O", "strain or isolate": "H37Rv", "measure": "MIC", "value": ">100 µg/mL"}
{"smiles": "CC(C)OC(=S)SSC(=S)NCCNC(=S)SSC(=S)OC(C)C", "strain or isolate": "H37Rv", "method": "BACTEC", "measure": "MIC bound", "value": ">6.25 µg/mL"}
{"smiles": "CCCCCC(=O)c1ccc(Cl)cc1", "strain or isolate": "H37Rv", "measure": "MIC", "value": ">100 µg/mL"}
{"smiles": "CCOC(=O)c1nnc2cc(-c3ccccc3)nn2c1C", "strain or isolate": "H37Rv", "method": "resazurin", "measure": "inhibition", "dose": "6.25 µg/mL", "value": "20%"}
{"smiles": "NC(CCCCNc1ccc([N+](=O)[O-])cc1[N+](=O)[O-])C(=O)O", "strain or isolate": "H37Rv", "measure": "MIC", "value": ">100 µg/mL"}
{"smiles": "Cc1ccc(N=C=O)cc1[N+](=O)[O-]", "strain or isolate": "H37Rv", "method": "BACTEC", "measure": "MIC bound", "value": ">12.5 µg/mL"}
{"smiles": "CSC(=O)c1ccc(O)cc1O", "strain or isolate": "H37Rv", "measure": "MIC", "value": ">100 µg/mL"}
{"smiles": "CC[C@@]1(O)C[C@H](O[C@H]2C[C@H](N(C)C)[C@H](O)[C@H](C)O2)c2c(cc3c(c2O)C(=O)c2c(O)cccc2C3=O)[C@H]1C(=O)OC", "strain or isolate": "H37Rv", "method": "BACTEC", "measure": "inhibition", "dose": "12.5 µg/mL", "value": "100%"}
{"smiles": "O=C(/C=C/c1cc2ccccc2[nH]1)c1ccncc1", "measure": "EC50", "value": ">12.5 µg/mL"}
{"smiles": "Cc1cc(N(C)C)nc2cc(N)ccc12", "strain or isolate": "H37Rv", "method": "BACTEC", "measure": "MIC bound", "value": "≤12.5 µg/mL"}
{"smiles": "COc1ccccc1CCNCCNCCc1ccc(OC)c(OC)c1", "measure": "MIC", "value": "50 µM"}
{"smiles": "CC(C)=CCC/C(C)=C/CNCCNC(C)C12CC3CC(CC(C3)C1)C2", "measure": "MIC", "value": "25 µM"}
{"smiles": "COC(=O)C1CC23CC45CC6C(C)CN(CC7CC(OC(C)=O)(CC8=C2C1CC8)CC73C4OC(C)=O)C65O", "strain or isolate": "H37Rv", "method": "BACTEC", "measure": "inhibition", "dose": "12.5 µg/mL", "value": "11%"}
{"smiles": "CC(CNCCC(c1ccccc1)c1ccccc1)NC1CCCCCCC1", "measure": "MIC", "value": "12.5 µM"}
{"smiles": "COc1ccc(/C=C/C(=O)c2cc(Cl)ccc2O)cc1", "strain or isolate": "H37Rv", "measure": "EC50", "value": ">12.5 µg/mL"}
{"smiles": "CN1CCC(CN)(c2ccccc2)CC1.Cl", "strain or isolate": "H37Rv", "measure": "MIC", "value": ">100 µg/mL"}
{"smiles": "C/C(O)=C(\\C=N\\C(=S)Nc1ccc(S(=O)(=O)Nc2nccs2)cc1)C(=O)Nc1ccccc1C", "strain or isolate": "H37Rv", "method": "resazurin", "measure": "MIC bound", "value": ">6.25 µg/mL"}
{"smiles": "CC(C)OCC1(c2ccccc2)NC(=O)NC1=O", "strain or isolate": "H37Rv", "measure": "MIC", "value": ">100 µg/mL"}
{"smiles": "COc1ccc(C2CC(=O)c3cc(F)ccc3O2)cc1", "strain or isolate": "H37Rv", "measure": "inhibition", "dose": "12.5 µg/mL", "value": "0%"}
{"smiles": "O=Cc1ccccc1OCC(=O)O", "strain or isolate": "H37Rv", "measure": "MIC", "value": ">100 µg/mL"}
{"smiles": "Clc1ccc(CCNCCNCc2cccc3ccccc23)c(Cl)c1", "measure": "MIC", "value": "25 µM"}
{"smiles": "c1ccc(COc2ccc(C3CCCCC3)cc2)cc1", "strain or isolate": "H37Rv", "measure": "MIC", "value": ">100 µg/mL"}
{"smiles": "CCCCC(CC)CN1CN(CC(CC)CCCC)CC(C)(NCCNC2CCc3ccccc32)C1", "measure": "MIC", "value": "25 µM"}
{"smiles": "CC(C)(C)c1ncc(CCCN=C(N)N)[nH]c1=O", "strain or isolate": "PAS-R", "measure": "MIC", "value": "0.8 µg/mL"}
{"smiles": "CCOC(=O)C1C(OC(C)=O)C(C(=O)OCC)C(C)N(C(C)=O)C1C", "strain or isolate": "H37Rv", "measure": "MIC", "value": ">100 µg/mL"}
{"smiles": "CCCCC(CC)CN1CN(CC(CC)CCCC)CC(C)(NCCNC2CCCc3ccccc32)C1", "measure": "MIC", "value": "50 µM"}
{"smiles": "OC[C@@H](O)[C@@H](O)[C@H](O)C(/C=N/Nc1ccccc1)=N/Nc1ccccc1", "strain or isolate": "H37Rv", "measure": "inhibition", "dose": "6.25 µg/mL", "value": "-1%"}
{"smiles": "Cc1cc(N)ccc1S(=O)(=O)c1ccc(N)cc1", "strain or isolate": "H37Rv", "measure": "MIC", "value": "100 µg/mL"}
{"smiles": "OCc1ccccc1Sc1ccccc1CNCCNCCCc1ccccc1", "measure": "MIC", "value": "50 µM"}
{"smiles": "Nc1ccc(O)cc1", "strain or isolate": "H37Rv", "measure": "MIC", "value": ">100 µg/mL"}
{"smiles": "COc1ccc(S(=O)(=O)NC(=S)S)cc1", "strain or isolate": "H37Rv", "measure": "MIC", "value": "4 µg/mL"}
{"smiles": "COc1ccc(OC)c(CCNCCNCc2ccc(OC)c(OC)c2)c1", "measure": "MIC", "value": "6.25 µM"}
{"smiles": "CCCCCCCCC1OC1CCCCCCCC(=O)O", "strain or isolate": "H37Rv", "measure": "MIC", "value": ">100 µg/mL"}
{"smiles": "CO[C@H]1/C=C/O[C@@]2(C)Oc3c(C)c(O)c4c(O)c(c5c(c4c3C2=O)NC2(CCN(CC(C)C)CC2)N=5)=NC(=O)/C(C)=C\\C=C\\[C@H](C)[C@H](O)[C@@H](C)[C@@H](O)[C@@H](C)[C@H](OC(C)=O)[C@@H]1C", "strain or isolate": "2230 (rifampin-resistant)", "measure": "MIC", "value": "0.2 µg/mL"}
{"smiles": "FC(F)(F)c1ccc(CNCCNCCc2ccc(Cl)cc2Cl)cc1", "measure": "MIC", "value": "50 µM"}
{"smiles": "COc1ccc(/C=C/C(=O)c2ccccn2)cc1", "measure": "EC50", "value": ">12.5 µg/mL"}
{"smiles": "C=CCNc1nc(NCC=C)nc(OCCCC)n1", "strain or isolate": "H37Rv", "measure": "MIC", "value": ">100 µg/mL"}
{"smiles": "CC(C)=CCC/C(C)=C/CNCCNC(C)(C)CC(C)(C)C", "measure": "MIC", "value": "25 µM"}
{"smiles": "O=C1CC(c2ccccc2)Oc2c(I)cccc21", "strain or isolate": "H37Rv", "measure": "inhibition", "dose": "12.5 µg/mL", "value": "5%"}
{"smiles": "O=c1oc(-c2ccccc2)c(-c2ccccc2)c2cc(Br)c(Br)cc12", "strain or isolate": "H37Rv", "measure": "MIC", "value": ">100 µg/mL"}
{"smiles": "COc1ccccc1OC(=O)Nc1ccc(C)c([N+](=O)[O-])c1", "strain or isolate": "H37Rv", "method": "BACTEC", "measure": "MIC bound", "value": ">12.5 µg/mL"}
{"smiles": "CCCCCCCCCCCCOc1ccccc1Cl", "strain or isolate": "H37Rv", "measure": "MIC", "value": ">100 µg/mL"}
{"smiles": "c1ccc([C@H]2C[C@@H]2NCCNC2CCCCCCC2)cc1", "measure": "MIC", "value": "25 µM"}
{"smiles": "NCCCNCCCCNCCCN", "strain or isolate": "H37Rv", "method": "BACTEC", "measure": "MIC", "value": "≥12.8 µg/mL"}
{"smiles": "O=C1NC(=O)c2c1cccc2[N+](=O)[O-]", "strain or isolate": "H37Rv", "measure": "MIC", "value": ">100 µg/mL"}
{"smiles": "CSC(=S)N/N=C(/C)c1cccs1", "strain or isolate": "PAS-R", "measure": "MIC", "value": "0.4 µg/mL"}
{"smiles": "Cc1ccc(CNCCNCc2ccco2)cc1", "measure": "MIC", "value": "25 µM"}
{"smiles": "COc1ccc(-c2cc(C(=O)NN=Cc3ccc([N+](=O)[O-])cc3)c3ccc(C)cc3n2)cc1OC", "strain or isolate": "H37Rv", "method": "BACTEC", "measure": "MIC bound", "value": ">12.5 µg/mL"}
{"smiles": "CCCCCCCCCCCCCCCCCC(=O)N(C)c1ccc(N(C)C(=O)CCCCCCCCCCCCCCCCC)cc1", "strain or isolate": "H37Rv", "measure": "MIC", "value": ">100 µg/mL"}
{"smiles": "COc1ccccc1C(=O)N(Cc1ccccc1)c1ccc(Cl)c(C(=O)OC(C)C)c1", "strain or isolate": "H37Rv", "method": "BACTEC", "measure": "inhibition", "dose": "12.5 µg/mL", "value": "0%"}
{"smiles": "O=C([O-])C1C=Cc2oc3ccccc3c2C1.[Na+]", "strain or isolate": "H37Rv", "measure": "MIC", "value": ">100 µg/mL"}
{"smiles": "C=C1CC(OC(C)=O)/C=C(\\C)CC[C@@H](C(C)(C)O)C[C@@H]1O", "strain or isolate": "H37Rv", "method": "BACTEC", "measure": "MIC bound", "value": ">12.5 µg/mL"}
{"smiles": "CC(CNC1CCCCCCC1)NCCC(c1ccccc1)c1ccccc1", "measure": "MIC", "value": "12.5 µM"}
{"smiles": "CCCC/C(C)=N/NC(=S)SC", "strain or isolate": "H37Rv", "measure": "MIC", "value": "4 µg/mL"}
{"smiles": "O=C1c2ccccc2OC(c2ccccc2)C1I", "measure": "inhibition", "dose": "12.5 µg/mL", "value": "0%"}
{"smiles": "O=C(O)C1OC(Oc2ccc3oc4ccccc4c(=O)c3c2)C(O)C(O)C1O", "strain or isolate": "H37Rv", "method": "BACTEC", "measure": "MIC bound", "value": ">12.5 µg/mL"}
{"smiles": "CC(C)c1ccc2c(c1)CC[C@H]1[C@](C)(CNCCNC3CCCCC3)CCC[C@]21C", "measure": "MIC", "value": "25 µM"}
{"smiles": "CN(C)c1ccc(C(c2c(O)c3ccc(O)cc3oc2=O)c2c(O)c3ccc(O)cc3oc2=O)cc1", "strain or isolate": "H37Rv", "method": "BACTEC", "measure": "inhibition", "dose": "12.5 µg/mL", "value": "19%"}
{"smiles": "CC1(C)[C@H]2CC[C@@H](CNCCNCC(c3ccccc3)c3ccccc3)[C@@H]1C2", "measure": "MIC", "value": "3.13 µM"}
{"smiles": "CN(C)C1CCC(Nc2nc(Nc3cc(Cl)cc(Cl)c3)nc3ccccc23)CC1.Cl.Cl", "strain or isolate": "H37Rv", "method": "resazurin", "measure": "MIC bound", "value": "<6.25 µg/mL"}
{"smiles": "CCC1C=CC2C(C(=O)O)C1C(=O)N2c1ccc(Br)cc1", "strain or isolate": "H37Rv", "measure": "MIC", "value": ">100 µg/mL"}

The first 9 rows once more:

smiles	strain or isolate	method	measure	dose	value
C/C(=C\C(=O)c1ccccc1)N1CCOCC1	H37Rv	-	MIC	-	>100 µg/mL
CO[C@H]1/C=C/O[C@@]2(C)Oc3c(C)c(O)c4c(=O)c(c5oc6cc(N7CCN(C(C)C)CC7)cc(=O)c6nc5c4c3=C2O)NC(=O)/C(C)=C\C=C\[C@H](C)[C@H](O)[C@@H](C)[C@@H](O)[C@@H](C)[C@H](OC(C)=O)[C@@H]1C	33 (rifampin-resistant)	-	MIC	-	0.1 µg/mL
CC(C)(C)SCCC(=O)O	H37Rv	-	MIC	-	>100 µg/mL
CC(C)OC(=S)SSC(=S)NCCNC(=S)SSC(=S)OC(C)C	H37Rv	BACTEC	MIC bound	-	>6.25 µg/mL
CCCCCC(=O)c1ccc(Cl)cc1	H37Rv	-	MIC	-	>100 µg/mL
CCOC(=O)c1nnc2cc(-c3ccccc3)nn2c1C	H37Rv	resazurin	inhibition	6.25 µg/mL	20%
NC(CCCCNc1ccc([N+](=O)[O-])cc1[N+](=O)[O-])C(=O)O	H37Rv	-	MIC	-	>100 µg/mL
Cc1ccc(N=C=O)cc1[N+](=O)[O-]	H37Rv	BACTEC	MIC bound	-	>12.5 µg/mL
CSC(=O)c1ccc(O)cc1O	H37Rv	-	MIC	-	>100 µg/mL